PubChem BioAssay AID1259414 – Drosophila RNAi Screening Center, 2018

Purpose: 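Host factors increasing or decreasing Wolbachia levels in cultured fly cells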 (primary screen)
Cells: Drosophila JW18 cells infected with Wolbachia
Reagent: long dsRNA against Drosophila genes, 0.25 µg dsRNA per well of a 384-well plate
Time to read-out: 5 days
Treatment: cells persistently infected with Wolbachia before knock-down; no added drug
Read-out: 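Automated imaging of bacterial rRNA staining divided by host cell count, reported as plate-normalised robust z-score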
Scale: Wolbachia per cell robust z: higher = more Wolbachia per host cell than the plate typical
Hit rule: 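Hit when robust z is 1.5 or more, or -1.5 or less, in at least two of three replicates; excludes dsRNAs with several or no targets, genes not expressed in JW18 and well A1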
The screen tested about 24,000 reagents; below is a random part of those that have a named target and a result. Of all reagents, about 1,210 (5%) were called active. 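Inactive calls also include excluded dsRNAs with several or no targets, genes unexpressed in JW18, and well A1, regardless of score.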 Reagent sequences are not shown.

The opening 2 entries, to show the layout:
Zw (Zwischenferment) [DRSC20303]
- Wolbachia per cell robust z, rep 1: -0.303
- Wolbachia per cell robust z, rep 2: 0.0904
- Wolbachia per cell robust z, rep 3: -0.444
- outcome: inactive

Zw (Zwischenferment) [DRSC27667]
- Wolbachia per cell robust z, rep 1: -1.38
- Wolbachia per cell robust z, rep 2: -0.302
- Wolbachia per cell robust z, rep 3: -0.998
- outcome: inactive

The list itself, from the first entry:
Zw (Zwischenferment) [DRSC20303]
- Wolbachia per cell robust z, rep 1: -0.303
- Wolbachia per cell robust z, rep 2: 0.0904
- Wolbachia per cell robust z, rep 3: -0.444
- outcome: inactive

Zw (Zwischenferment) [DRSC27667]
- Wolbachia per cell robust z, rep 1: -1.38
- Wolbachia per cell robust z, rep 2: -0.302
- Wolbachia per cell robust z, rep 3: -0.998
- outcome: inactive

CG32537 [DRSC20073]
- Wolbachia per cell robust z, rep 1: 0.397
- Wolbachia per cell robust z, rep 2: 0.0571
- Wolbachia per cell robust z, rep 3: 1.39
- outcome: inactive

CG32537 [DRSC23589]
- Wolbachia per cell robust z, rep 1: -0.667
- Wolbachia per cell robust z, rep 2: 1.42
- Wolbachia per cell robust z, rep 3: -0.29
- outcome: inactive

CG17564 [DRSC02626]
- Wolbachia per cell robust z, rep 1: 0.436
- Wolbachia per cell robust z, rep 2: 0.93
- Wolbachia per cell robust z, rep 3: 1.09
- outcome: inactive

CG17564 [DRSC26542]
- Wolbachia per cell robust z, rep 1: -0.828
- Wolbachia per cell robust z, rep 2: 0.385
- Wolbachia per cell robust z, rep 3: 1.18
- outcome: inactive

FBXO11 (F-box protein 11) [DRSC16497]
- Wolbachia per cell robust z, rep 1: 0.981
- Wolbachia per cell robust z, rep 2: 0.358
- Wolbachia per cell robust z, rep 3: 0.706
- outcome: inactive

CG5172 [DRSC19936]
- Wolbachia per cell robust z, rep 1: 0.0807
- Wolbachia per cell robust z, rep 2: -1.61
- Wolbachia per cell robust z, rep 3: -1.64
- outcome: inactive

CG5172 [DRSC23493]
- Wolbachia per cell robust z, rep 1: -1.05
- Wolbachia per cell robust z, rep 2: -0.617
- Wolbachia per cell robust z, rep 3: -6.63
- outcome: inactive

CG13678 [DRSC10036]
- Wolbachia per cell robust z, rep 1: 0.506
- Wolbachia per cell robust z, rep 2: 0.33
- Wolbachia per cell robust z, rep 3: 0.843
- outcome: inactive

CG31751 [DRSC02464]
- Wolbachia per cell robust z, rep 1: -0.855
- Wolbachia per cell robust z, rep 2: 0.54
- Wolbachia per cell robust z, rep 3: -3.49
- outcome: inactive

CG31751 [DRSC02465]
- Wolbachia per cell robust z, rep 1: 0.953
- Wolbachia per cell robust z, rep 2: -1.09
- Wolbachia per cell robust z, rep 3: 1.04
- outcome: inactive
